A mixed list of measured activities; the numbers were collected in NIAID ChemDB.

Common to all: whole-cell or culture tests

Lines come from different laboratories, so protocols vary. An empty or dashed field is not shown. MIC50, MIC90 and the like: level of inhibition, or share of isolates inhibited. a–b is a range or a potency band. Inhibition is in % at the dose shown (toxicity tests: loss of growth or viability). ECn: concentration that inhibits the pathogen or its effect by n%.

smiles	method	tested at	measure	strain or isolate	species	cell line	value
CNc1n[nH]c2cc(-n3c(=O)c4c(n5ncc(CC(C)C)c35)CN(C(=O)c3ccc(Cl)c(C(F)(F)F)c3)[C@H](C)C4)ccc12	luminescence		EC50		Hepatitis B virus	HepG2.117	≤0.05 µM
CC(C)(O)c1cn(-c2cccc3ccccc23)nn1	broth dilution	2048 µg/mL	inhibition	URM 4124	Candida albicans		0%
CC(C)Nc1nc2cc(Cl)c(Cl)cc2n1[C@H]1O[C@@H](CO)[C@H](O)[C@@H]1O	virus yield		EC50	AD169	Human cytomegalovirus	MRC-5	0.06 µM
CC(C)N=C(N)c1ccc2nc(-c3ccc4c(c3)Cc3cc(-c5nc6ccc(C(N)=NC(C)C)cc6[nH]5)ccc3-4)[nH]c2c1			MFC	Isolate CA2256 fluconazole-resistant	Candida albicans		1.56 µg/mL
CCC(CC)[C@H](NC(C)=O)[C@@H]1[C@H](O)[C@@H](C(=O)O)C[C@H]1N=C(N)N			EC50	Influenza A/Shandong/09/93 (H3N2)	Influenza A virus	MDCK	0.17 µM
Nc1ccn([C@@H]2O[C@H](CO)[C@@H](O)[C@@H]2O)c(=O)n1			MIC	CUT	Herpes simplex virus 1		2.2–4.4 µg/mL
O=C(c1ccccc1)N(CCc1ccccc1)C[C@H](O)CN(CC1CCCC1)S(=O)(=O)C1CCS(=O)(=O)C1	p24		EC90	IIIB	HIV-1	CEM	1 µM
Oc1ccccc1N=Cc1ccc2c(c1)OCO2			MIC99	23/10993	Cryptococcus gattii		4 µg/mL
CCCc1cc(=O)oc2cc(OC(=O)C(C)(C)C)c3c(c12)OC(C)(C)C=C3	virus yield		EC50	Chicago-1	Measles virus	CV-1	<0.3 µg/mL
CO/N=C1\CN(c2nc3c(cc2F)c(=O)c(C(=O)O)cn3C2CC2)CC1CN			MIC90	13 strains	Escherichia coli		0.25 µg/mL
O=c1[nH]c(=O)n([C@H]2C[C@H](O)[C@@H](CO)O2)cc1Br	hybridisation	12.68 µg/mL	inhibition		Murine polyoma virus	ME	86.5%
OC[C@H]1O[C@@H](n2cnc3c(SCc4ccc(Cl)cc4Cl)ncnc32)[C@H](O)[C@@H]1O		50 µM	inhibition	RH adenosine kinase-deficient	Toxoplasma gondii		0%
Nc1ncnc2c1ncn2[C@@H]1C[C@H](N)[C@@H](O)[C@H]1O	neutral red		EC50	Halonen	Measles virus	CV-1	0.2 µg/mL
COCCNC(=O)c1cc2c(s1)-c1ccccc1N(C(=O)c1ccc(NC(=O)c3ccccc3-c3ccccc3)cc1)CC2	plaque count		EC50	LONG	Respiratory syncytial virus	HeLa	0.98 µM
Nc1ncnc2c1ncn2[C@@H]1CC[C@@H](O)[C@H]1O	cytopathic effect		EC50		Measles virus	CV-1	<0.1 µg/mL
O=C(O)CP(=O)(O)O	cytopathic effect		EC50	Oka PMEDAP-resistant	Varicella zoster virus	HEL	118.5 µM
CCCc1cc(=O)oc2cc(OC(=O)CC)c3c(c12)OC(C)(C)C=C3	virus yield		EC90	Chicago-1	Measles virus	CV-1	2 µg/mL
CC(C)N=C(N)/N=C(\N)NOCCCOc1cc(Cl)c(Cl)cc1Cl			MIC	KT	Mycobacterium avium complex		32 µg/mL
CN[C@H]1CC[C@@H](c2ccc(Cl)c(Cl)c2)c2ccccc21	broth dilution		MIC90	92C	Cryptococcus neoformans		4 µg/mL
O=c1[nH]c(=O)n([C@@H]2O[C@H](CO)[C@@H](O)[C@@H]2O)cc1/C=C/Br	cytopathic effect		EC50	Oka BVaraU-resistant	Varicella zoster virus	HEL	>57 µM
COP(=O)(O)OCN(C)C(=O)c1ccc(-n2c(=O)c3c(n4ncc(CC5CC5)c24)CN(C(=O)c2ccc(Br)c(C(F)(F)F)c2)[C@@H](C)C3)cc1	luminescence		EC50		Hepatitis B virus	HepG2.117	>5 µM
O=C(O)P(=O)(O)O	cytopathic effect		EC50	Clinical isolate VZV-24	Varicella zoster virus	HEL	69 µM
C/C=C\[C@@H]1C[C@H](C(=O)O)N[C@H]1[C@@H](NC(C)=O)[C@](C)(CCC)OC	plaque count		EC50	Influenza A H3N2 isolate C32C	Influenza A virus	MDCK	0.5 µg/mL
N#Cc1cc([N+](=O)[O-])ccc1Oc1ccc(Cl)c(Cl)c1		0.048 µg/mL	inhibition	TYPE A21	Coxsackie virus	VERO	68%
C[C@H]1Cc2c(n3ncc(Cc4ccccc4)c3n(-c3ccc(-c4cnnn4C)cc3)c2=O)CN1C(=O)c1ccc(Br)c(C(F)(F)F)c1	luminescence		EC50		Hepatitis B virus	HepG2.117	0.05–0.5 µM
Cc1nc(NCCCCNc2ccnc3cc(Cl)ccc23)nc(-c2ccccc2[N+](=O)[O-])c1C(=O)OC(C)C			MIC99	ATCC 28957	Cryptococcus neoformans		1.4 µg/mL
CC(C)(O)c1cn(-c2ccc3ccccc3c2)nn1	broth dilution	2048 µg/mL	inhibition	URM 4820	Candida albicans		0%
CCCc1cc(=O)oc2c3c(c4c(c12)OC(C)(C)C=C4)O[C@H](C)[C@H](C)C3=O	cytopathic effect		EC50	Chicago-1	Measles virus	CV-1	9 µg/mL
C[C@@H](c1ncncc1F)[C@](O)(Cn1cncn1)c1ccc(F)cc1F	broth dilution		MIC	CBS 10090	Cryptococcus gattii		0.5 µg/mL
CCC(C)n1ncn(-c2ccc(N3CCN(c4ccc(OC[C@H]5CO[C@](Cn6cncn6)(c6ccc(Cl)cc6Cl)O5)cc4)CC3)cc2)c1=O	broth dilution		MIC50	VG IIc	Cryptococcus gattii		0.25 µg/mL
Nc1ncnc2c1ncn2C[C@@H](CO)OCP(=O)(O)O			MIC		Cytomegalovirus		0.1 µg/mL
N#Cc1ccc(CSc2ncnc3c2ncn3[C@@H]2O[C@H](CO)[C@@H](O)[C@H]2O)cc1		5 µM	inhibition	RH (WILD TYPE)	Toxoplasma gondii		38.5%
C/C=C/C/C=C/CCC(=O)[C@H]1O[C@H]1C(N)=O			MIC	UB1005/PJTB3	Escherichia coli		80 µg/mL
OC[C@H]1O[C@@H](n2c(Br)nc3cc(Cl)c(Cl)cc32)[C@H](O)[C@@H]1O	hybridisation		EC50	AD169	Human cytomegalovirus	MRC-5	0.54 µM
Nc1nccc2c1ncn2[C@@H]1C=C[C@@H](O)[C@H]1O			MIC	TYPE 1	Reovirus		2 µg/mL
O=C(c1ccccc1)N(CCc1ccccc1)C[C@H](O)CN(CC1CCCC1)S(=O)(=O)C1CCCS(=O)(=O)C1	p24		EC90	IIIB	HIV-1	CEM	1 µM
CCOC(=O)c1c(C)nc(NCCCCNc2ccnc3cc(Cl)ccc23)nc1-c1ccccc1[N+](=O)[O-]			MIC99	LMM 818	Cryptococcus gattii		11.3 µg/mL
O=C(NC1CC1)c1cc2c(s1)-c1ccccc1N(C(=O)c1ccc(NC(=O)c3ccccc3-c3ccccc3)cc1)CC2	plaque count		EC50	Clinical isolate FM58-8 (A)	Respiratory syncytial virus	HeLa	0.38 µM
CCCC(CCC)C(NC(C)=O)C1C(N=C(N)N)CC(C(=O)O)C1O			EC50	Beijing/184/93	Influenza B virus	MDCK	0.02 µM
Nc1ccn(C[C@@H](CO)OCP(=O)(O)O)c(=O)n1			MIC		Cytomegalovirus		0.08 µg/mL
CCCc1cc(=O)oc2cc(OS(=O)(=O)c3ccc(C)cc3)cc(OS(=O)(=O)c3ccc(C)cc3)c12	cytopathic effect		EC50	MO6	Measles virus	CV-1	0.5 µg/mL
Nc1nc2c(ncn2COC(CO)CO)c(=O)[nH]1	virus yield		EC95	TOWNE	Human cytomegalovirus		3.1 µM
CC(C)(O)c1cn(-c2ccc([N+](=O)[O-])cc2)nn1	broth dilution	2048 µg/mL	inhibition	URM 4127	Candida albicans		0%
Oc1ccccc1N=Cc1cccc(O)c1O			MIC99	ATCC 32608	Cryptococcus gattii		5.7 µg/mL
Nc1ncnc2c1ncn2[C@@H]1C=C[C@@H](O)[C@H]1O			MIC		Sindbis virus		>400 µg/mL
Nc1ncnc2c1ncn2C[C@@H](CO)OCP(=O)(O)O	cytopathic effect		EC50	Oka PMEDAP-resistant	Varicella zoster virus	HEL	0.013 µM
COc1ccc(S(=O)(=O)N(CC(C)C)CC(O)CNc2ccccc2C(=O)NC(C)(C)C)cc1	p24		EC90	IIIB	HIV-1	CEM	1 µM
Cn1cc(C(=O)NCc2ccc(Cl)cc2)c(=O)c2cc(CN3CCOCC3)ccc21	plaque count	1.9 µM	inhibition	NE varicella isolate	Varicella zoster virus	HFF	90%
Nc1nc2c(ncn2CCC(CO)CO)c(=O)[nH]1	cytopathic effect		EC50	Oka CF1742-resistant	Varicella zoster virus	HEL	65 µM
COc1ccc(S(=O)(=O)N(CC(C)C)C[C@@H](O)CCN(CC2CCCC2)S(=O)(=O)c2ccc3nc[nH]c3c2)cc1	p24		EC90	IIIB	HIV-1	CEM	1 µM
Nc1ncnc2c1ncn2[C@H]1C[C@H](O)[C@H](O)[C@@H]1O	virus yield		EC50		Measles virus	CV-1	0.2 µg/mL
CCC(CC)[C@H](NC(C)=O)[C@@H]1[C@H](O)[C@@H](C(=O)O)C[C@H]1N=C(N)N			EC50	Influenza A/Washington/897/80 (H3N2)	Influenza A virus	MDCK	<0.01 µM
CCOC(=O)/C=C/[C@H](C[C@@H]1CCNC1=O)NC(=O)[C@@H](CC(=O)[C@@H](NC(=O)c1cc(C)on1)C(C)C)Cc1ccc(F)cc1	cytopathic effect / visual reading		EC50	Isolate 45	Rhinovirus	OHIO HELA-I	0.01 µg/mL
CO[C@H]1/C=C/O[C@@]2(C)Oc3c(C)c(O)c4c(O)c(c5c(c4c3C2=O)NC2(CCN(CC(C)C)CC2)N=5)=NC(=O)/C(C)=C\C=C\[C@H](C)[C@H](O)[C@@H](C)[C@@H](O)[C@@H](C)[C@H](OC(C)=O)[C@@H]1C			MIC	23-Feb	Mycobacterium avium intracellulare		0.25 µg/mL
Nc1nc2c(ncn2COC(CO)CO)c(=O)[nH]1	plaque count		EC90	VR5406 (ganciclovir-resistant)	Human cytomegalovirus		75 µM
CCCCCCCCCCCCOC(=O)[C@]1(O)C[C@@H](O)[C@@H](O)[C@H](OC(=O)/C=C/c2ccc(O)c(O)c2)C1	absorbance		MIC80	SLV 549	Aspergillus nomius		>1500 µg/mL
Nc1ncnc2c1ncn2[C@@H]1C=C[C@@H](O)[C@H]1O	cytopathic effect		EC50	CC	Measles virus	CV-1	0.05 µg/mL
CCCC(CCC)C(NC(C)=O)C1CC(C(=O)O)CC1N=C(N)N			EC50	Influenza A/Washington/05/96 (H3N2)	Influenza A virus	MDCK	0.01 µM
C=CCc1ccc(OC)c(OC)c1	turbidity		MIC90	3240	Candida tropicalis		350 µg/mL
Nc1nccc2c1ncn2[C@@H]1C=C(CO)[C@@H](O)[C@H]1O			MIC	TYPE 1	Reovirus		0.07 µg/mL
CNC(=O)c1cnc(-n2c(=O)c3c(n4ncc(CC(C)C)c24)CN(C(=O)c2ccc(Br)c(C(F)(F)F)c2)[C@@H](C)C3)nc1	luminescence		EC50		Hepatitis B virus	HepG2.117	≤0.05 µM
COc1ccc(S(=O)(=O)N(CC(C)C)CC(O)CCN2CCN(Cc3cccnc3)C[C@H]2C(=O)NC(C)(C)C)cc1	p24		EC90	IIIB	HIV-1	CEM	1 µM
CCO/N=C/c1ccc(OCCC2CCN(c3ccc(Cl)nn3)CC2)cc1	neutral red		EC50	K6579 (ICAM-1 receptor group 100)	Rhinovirus	KB	0.026 µM

A second listing of 4 rows from above:

smiles,method,tested at,measure,strain or isolate,species,cell line,value
CO/N=C1\CN(c2nc3c(cc2F)c(=O)c(C(=O)O)cn3C2CC2)CC1CN,,,MIC90,13 strains,Escherichia coli,,0.25 µg/mL
COc1ccc(S(=O)(=O)N(CC(C)C)C[C@@H](O)CCN(CC2CCCC2)S(=O)(=O)c2ccc3nc[nH]c3c2)cc1,p24,,EC90,IIIB,HIV-1,CEM,1 µM
OC[C@H]1O[C@@H](n2c(Br)nc3cc(Cl)c(Cl)cc32)[C@H](O)[C@@H]1O,hybridisation,,EC50,AD169,Human cytomegalovirus,MRC-5,0.54 µM
C/C=C\[C@@H]1C[C@H](C(=O)O)N[C@H]1[C@@H](NC(C)=O)[C@](C)(CCC)OC,plaque count,,EC50,Influenza A H3N2 isolate C32C,Influenza A virus,MDCK,0.5 µg/mL